Measured values from several laboratories, pooled; numbers as filed in NIAID ChemDB.

All rows: growth or infection tests; species: HIV-1; measure: EC50

Blank or dashed fields: not listed here. ECn is the concentration giving n% inhibition of infection, replication or growth. Two numbers with a dash give a range or band. Rows are shuffled and stem from different studies.

structure | strain or isolate | changes | cells | method | value
COc1ccc2c(c1)C1=C(CC2)C(=O)NCCN1Cc1cccc(Cl)c1 | - | - | OM-10.1 | p24 | 0.1 µM
C[C@@H]1CN(C(=O)c2ccccc2)CCN1C(=O)C(=O)c1c[nH]c2c(NC(=O)/C=C/C(=O)O)cccc12 | - | - | HeLa | luciferase / reporter gene | <1 µM
COc1ncc(OC)c2c(C(=O)C(=O)N3CCN(C(=O)c4ccccc4)CC3)c[nH]c12 | BaL | - | PM1 | p24 / ELISA | 0.023 µM
CC(C)CN1CCn2cnnc2-c2sc3ccccc3c21 | - | - | OM-10.1 | p24 | 0.5 µM
COc1ccc(N(C)C(=O)[C@H](Cc2cc(F)cc(F)c2)NC(=O)Cc2cccc(CC(=O)N[C@@H](Cc3cc(F)cc(F)c3)C(=O)N(C)c3ccc(OC)cc3)c2)cc1 | NL4-3 | - | MT-2 | luciferase | 0.48 µM
Cc1cc(C#N)cc(C(=O)c2cc(Cl)ccc2OCC(=O)Nc2ccc(OCCCN3CC=CC3)cc2C)c1 | HXB2 (RT-K103N G190A) Recombinant | RT-K103N G190A | HeLa + HELA CD4+ | β-galactosidase | <0.01 µM
CC(C)CN(C[C@@H](O)[C@H](Cc1ccccc1)NC(=O)O[C@H]1CO[C@H]2OCC[C@H]21)S(=O)(=O)c1ccc2c(c1)OCO2 | MDR/B | - | PHA-PBM | p24 | 0.0039 µM
CC1CC(C)CN(S(=O)(=O)c2ccccc2[N+](=O)[O-])C1 | AE-CMU06 | - | HeLa | GFP / fluorescence | 0.1 µM
C=C(C)CN1CCNC(=O)c2sc3ccc(OC)cc3c21 | - | - | OM-10.1 | p24 | <0.08 µM
CCOC(=O)CNC(=O)Nc1cccc2c(C(=O)C(=O)N3CCN(C(=O)c4ccccc4)C[C@H]3C)c[nH]c12 | - | - | HeLa | luciferase / reporter gene | <1 µM
CS(=O)c1ccc(-c2nc(-c3ccc(F)cc3)c(-c3ccncc3)[nH]2)cc1 | pNL4-3 | - | Jurkat cells | p24 | 10 µM
C=CCN(C(=O)[C@H](Cc1cc(F)cc(F)c1)NC(=O)c1cccc(S(=O)(=O)N[C@@H](Cc2cc(F)cc(F)c2)C(=O)N(CC=C)c2ccc(OC)cc2)c1)c1ccc(OC)cc1 | NL4-3 | - | MT-2 | luciferase | 0.77 µM
Nc1nc2c(ncn2[C@H]2CC[C@@H](CO)O2)c(=O)[nH]1 | LAI | - | ATH-8 + ATH8 | cytopathic effect / XTT | <2 µM
CC(=O)N1CCC(C(=O)N(CCCN2CCC(Cc3ccc(C(N)=O)cc3)CC2)c2ccc(C)c(Cl)c2)CC1 | - | - | HEK 293 | p24 / ELISA | 0.00074 µM
Nc1nc(N)c2ncn([C@@H]3O[C@H](CO)C[C@@H]3F)c2n1 | LAI | - | ATH-8 + ATH8 | cytopathic effect / XTT | >100 µM
Cc1cc(S(N)(=O)=O)ccc1NC(=O)COc1ccc(Cl)cc1C(=O)c1cc(F)cc(F)c1 | HXB2 | RT-K103N V108I | HeLa + HELA CD4+ | β-galactosidase | <0.01 µM
CC(=O)c1c(C)nc(-c2ccccc2)nc1NC(=O)c1ccccc1 | 83-2/B1-T20r | - | HeLa | GFP / fluorescence | 0.04 µM
C[C@@H]1CN(C(=O)c2ccccc2)CCN1C(=O)C(=O)c1c[nH]c2c(NC(=O)C(=O)O)cccc12 | - | - | HeLa | luciferase / reporter gene | <1 µM
C[C@@H]1CCO[C@H]2Cn3cc(C(=O)NCc4ccc(F)cc4F)c(=O)c(O)c3C(=O)N12 | NL4-3 | - | CBMC | RT activity | 0.0011 µM
COc1cc2c(cc1Cc1cccc(Cl)c1F)c(=O)c(C(=O)O)cn2[C@H](CO)C(C)C | NL4-3 | - | CEM-GXR | GFP | 0.0009 µM
Cc1cc2cn[nH]c2cc1NC(=O)COc1ccc(Cl)cc1C(=O)c1cccc(C#N)c1 | HXB2 (RT-K103N G190A) Recombinant | RT-K103N G190A | HeLa + HELA CD4+ | β-galactosidase | 0.011–0.1 µM
COc1ccc2c(c1)C1=C(CC2)C(=O)NCCN1Cc1ccccc1C | - | - | OM-10.1 | p24 | 0.4 µM
Cc1cc(C)cc(C(=O)c2cc(Cl)ccc2OCC(=O)Nc2ccc(S(N)(=O)=O)cc2C)c1 | HXB2 | RT-V108I | HeLa + HELA CD4+ | β-galactosidase | <0.01 µM
OC[C@H]1O[C@@H]2O[C@H]3[C@H](O)[C@@H](O)[C@@H](O[C@H]4[C@H](O)[C@@H](O)[C@@H](O[C@H]5[C@H](O)[C@@H](O)[C@@H](O[C@H]6[C@H](O)[C@@H](O)[C@@H](O[C@H]7[C@H](O)[C@@H](O)[C@@H](O[C@H]8[C@H](O)[C@@H](O)[C@@H](O[C@H]1[C@H](O)[C@H]2O)O[C@@H]8CO)O[C@@H]7CO)O[C@@H]6CO)O[C@@H]5CO)O[C@@H]4CO)O[C@@H]3CO | IIIB | - | SupT1 + Sup-T1 | syncytia | >2500 µM
COc1ccc(N(C)C(=O)[C@H](Cc2cc(F)cc(F)c2)Nc2ncc(-c3cnc(N[C@@H](Cc4cc(F)cc(F)c4)C(=O)N(C)c4ccc(OC)cc4)nc3)cn2)cc1 | NL4-3 | - | MT-2 | luciferase | 13.68 µM
Cc1cc(S(N)(=O)=O)ccc1NC(=O)COc1ccc(Cl)cc1C(=O)c1cc(F)cc(C(F)(F)F)c1 | HXB2 | RT-V108I Y181C | HeLa + HELA CD4+ | β-galactosidase | 0.011–0.1 µM
CC1NC(=O)N(c2cccc3c(C(=O)C(=O)N4CCN(C(=O)c5ccccc5)C[C@H]4C)c[nH]c23)C1=O | - | - | HeLa | luciferase / reporter gene | <1 µM
O=C(NCc1c(F)cc(F)cc1F)c1cn2c(c(O)c1=O)C(=O)N1[C@H]3CC[C@H](C3)O[C@@H]1C2 | NL4-3 | - | CEM-GXR | GFP | 0.0015 µM
COc1ccc(N(C)C(=O)[C@H](Cc2ccccc2)NC(=O)c2cc(C(=O)O)cc(C(=O)N[C@@H](Cc3ccccc3)C(=O)N(C)c3ccc(OC)cc3)c2)cc1 | NL4-3 | - | MT-2 | luciferase | 10.06 µM
C=C(C)[C@@H]1CC[C@]2(C(=O)NCCCCCCCC(=O)N[C@@H](CC(C)C)[C@@H](O)CC(=O)O)CC[C@]3(C)[C@H](CC[C@@H]4[C@@]5(C)CC[C@H](O)C(C)(C)[C@@H]5CC[C@]43C)[C@@H]12 | LAI | GP41-L91H | HeLa P4 + HeLa | syncytia | >10 µM
Cc1cc(OCCCS(N)(=O)=O)ccc1NC(=O)COc1ccc(Cl)cc1C(=O)c1cc(F)cc(C(F)(F)F)c1 | HXB2 | RT-V106A Y181C | HeLa + HELA CD4+ | β-galactosidase | 0.011–0.1 µM
CCOC(=O)CCNC(=O)Nc1cccc2c(C(=O)C(=O)N3CCN(C(=O)c4ccccc4)C[C@H]3C)c[nH]c12 | - | - | HeLa | luciferase / reporter gene | <1 µM
C=CCN(C(=O)[C@H](Cc1cc(F)cc(F)c1)NS(=O)(=O)c1cccc(S(=O)(=O)N[C@@H](Cc2cc(F)cc(F)c2)C(=O)N(CC=C)c2ccc(OC)cc2)c1)c1ccc(OC)cc1 | NL4-3 | - | MT-2 | luciferase | 3.78 µM
CNCCCN(C)CCN1CCN(c2cccc3c(C(=O)C(=O)N4CCN(C(=O)c5ccccc5)C[C@H]4C)c[nH]c23)C1=O | - | - | HeLa | luciferase / reporter gene | <1 µM
Cc1cc(C#N)cc(C(=O)c2cc(Cl)ccc2OCC(=O)Nc2cnc(S(N)(=O)=O)cc2C)c1 | HXB2 | RT-G190A | HeLa + HELA CD4+ | β-galactosidase | <0.01 µM
Cc1ccc(C)n1-c1ccc(C(=O)O)c(O)c1 | 94UG103 X4R5 CLADE A | - | PBMC + MT-2 | p24 | 25.09 µM

A second listing of 2 rows from above:

Cc1cc(C#N)cc(C(=O)c2cc(Cl)ccc2OCC(=O)Nc2cnc(S(N)(=O)=O)cc2C)c1 ; strain or isolate: HXB2 ; changes: RT-G190A ; cells: HeLa + HELA CD4+ ; method: β-galactosidase ; value: <0.01 µM
C=CCN(C(=O)[C@H](Cc1cc(F)cc(F)c1)NC(=O)c1cccc(S(=O)(=O)N[C@@H](Cc2cc(F)cc(F)c2)C(=O)N(CC=C)c2ccc(OC)cc2)c1)c1ccc(OC)cc1 ; strain or isolate: NL4-3 ; cells: MT-2 ; method: luciferase ; value: 0.77 µM